# PubChem BioAssay AID504761 | Drosophila RNAi Screening Center | 2011
# Aim: 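Fly genes whose silencing reduces dengue virus type 2 infection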 (primary screen)
# Cell system: D.Mel-2 cells from Drosophila
# Knock-down reagent: long dsRNA against Drosophila genes
# Treatment: infection with dengue virus type 2; dose and infection time not stated
# Measurement: 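Cells stained for dengue envelope protein and imaged; percent of infected cells per well on duplicate plates, ranked by infection, with stained nuclei counted for cell number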
# Reading the numbers: infection score: higher = more virus-infected cells; cell count: higher = more cells in the well
# Hit rule: 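Very low infection ranking in both replicate wells (chance probability at most 0.065), then a retest showing infection dropped 1.5-fold or more at p below 0.05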
# Meaning of the calls: active = confirmed: knock-down lowers infection; inactive = not picked or not confirmed
# The deposit covers about 22,000 reagents; shown is an unselected part of those that have a named target and a result. Over the whole deposit, 116 (0.52%) got an active call. 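Calls depend on retest data that are not deposited; infection was ranked per plate without normalising between plates; the unit of the infection score is not given.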 Raw values are not corrected between plates. Reagents against one gene are numbered here. Names joined by + are all predicted targets of the reagent. Not all columns of the deposit are shown. Reagent sequences are not shown. Not stated in the record: the amount of reagent, the time to read-out.
The opening 5 entries as a preview:
Target gene,dsRNA no.,"infection score, replicate 1","infection score, replicate 2","cell count, replicate 1",call
CG5646,1,4.17,11.1,6449,inactive
CG5646,2,7.87,4.19,6631,inactive
Syt1,1,1.08,0.84,6227,inactive
Syt1,2,2.85,2.84,6146,inactive
Syt1,3,4.52,1.7,6131,inactive

Main list, from the start:
Target gene,dsRNA no.,"infection score, replicate 1","infection score, replicate 2","cell count, replicate 1",call
CG5646,1,4.17,11.1,6449,inactive
CG5646,2,7.87,4.19,6631,inactive
Syt1,1,1.08,0.84,6227,inactive
Syt1,2,2.85,2.84,6146,inactive
Syt1,3,4.52,1.7,6131,inactive
Syt1,4,10.4,2.24,5744,inactive
Syt1,5,3.8,1.93,6371,inactive
Syt1,6,7.22,7.52,6289,inactive
CG5445,1,1.01,15.7,5646,inactive
CG6678,1,3.47,2,6231,inactive
CG6678,2,25.8,16.8,6180,inactive
CG8155,1,22.2,10.6,5533,inactive
CG8155,2,2.36,3.1,5930,inactive
CG8155,3,,19,435,inactive
Srg3,1,4.74,5.08,6500,inactive
Srg3,2,3.42,2.26,6163,inactive
JhI-26,1,14.5,12.9,5275,inactive
JhI-26,2,4.34,1.82,6865,inactive
E2f1,1,2.16,2.25,3988,inactive
E2f1,2,7.1,10.8,902,inactive
Acp26Aa,1,2.06,3.04,6421,inactive
CG4686,1,0.19,10.5,529,inactive
Ilp4,1,3.35,3.87,5886,inactive
Ilp4,2,0.89,2.39,6438,inactive
CG7791,1,8.82,27.4,6414,inactive
anchor,1,12.8,11.8,5340,inactive
CG5504,1,3.82,13.9,6579,inactive
CG15406,1,1.99,1.32,6475,inactive
CG15406,2,6.46,17.8,6103,inactive
CG43693,1,8.03,3.74,4742,inactive
CG43693,2,12.9,16,6238,inactive
CG5404,1,2.5,1.86,6287,inactive
CG5404,2,24.3,0.92,4180,inactive
Rpt6R,1,,1.07,386,inactive
Remo,1,8.1,12.3,3344,inactive
viaf,1,12,14.9,5196,inactive
CG12868,1,4.04,1.42,6404,active
CG12868,2,5.65,13.9,6192,inactive
CG8646,1,22.6,8.69,5924,inactive
ced-6,1,2.98,3.02,6570,inactive
ced-6,2,8.33,14,4934,inactive
Eaat1,1,11.5,7.18,5621,inactive
alpha-Est9,1,3.32,1.28,6451,inactive
mei-218 + mei-217,1,15.9,3.59,1880,inactive
CG3544,1,2.28,0.97,5885,inactive
Cpsf73,1,3.57,3.75,3728,inactive
Cpsf73,2,7.89,,2306,inactive
Cyp9h1,1,7.48,15.3,7069,inactive
Cyp9h1,2,2.18,3.9,6248,inactive
NUCB1,1,0.65,3.29,6264,inactive
NUCB1,2,9.88,8.88,3341,inactive
CG3987,1,15.1,20.6,5694,inactive
CG15200,1,1.11,2.01,6923,inactive
CG15200,2,8.12,5.86,6414,inactive
CG6015,1,6.36,3.84,4154,inactive
CG6015,2,3.93,9.68,1068,inactive
CG15773,1,14.1,20.9,6104,inactive
gzl,1,0.77,4.28,518,inactive
gzl,2,23.2,15,5157,inactive
